A mixed list of measured activities; the numbers were collected in NIAID ChemDB.

All rows: growth or infection tests; species: Mycobacterium smegmatis; endpoint: MIC

Two numbers with a dash give a range or band.

structure	changes	read by	strain	result
Cc1c(N2CCCC(n3cccc3)C2)c(F)cn2c(=O)c(C(=O)O)cc(C3CC3)c12			ATCC114	6.2 µg/mL
CC[C@@H](C(=O)[C@@H](C)[C@@H](O)[C@H](C)[C@@H]1O[C@@H]([C@@H](CC)C(=O)O)CC[C@@H]1C)[C@H]1O[C@@]2(C=C[C@@H](O)[C@@]3(CC[C@@](C)([C@H]4CC[C@](O)(CC)[C@H](C)O4)O3)O2)[C@H](C)C[C@@H]1C	G457A	resazurin	mc2155	2.5 µg/mL
CCCCc1cnc(C(=O)/C=C/c2ccc(Cl)cc2)cn1		absorbance	CCM	>250 µg/mL
CCOc1c(N2CCN(CC)CC2)c(F)cc2c(=O)c(C(=O)O)cn(C3CC3)c12			ATCC 19420	0.5 µg/mL
CCCc1cnc(C(=O)/C=C/c2ccccc2F)cn1		absorbance	CCM	15.6 µg/mL
Cc1nc(-c2ccc(F)cc2)sc1-c1csc(Cc2ccc(Cl)cc2)n1		absorbance		>100 µM
CCN1CCN(c2c(F)cc3c(=O)c(C(=O)O)cn(C4CC4)c3c2F)CC1			ATCC 19420	0.25 µg/mL
O=C(O)c1cn(C2CC2)c2cc(N3CCNCC3)c(F)cc2c1=O		absorbance	CCM	0.098–0.195 µg/mL
Cc1c(N2CC(N)C3(C2)OCCO3)c(F)cn2c(=O)c(C(=O)O)cc(C3CC3)c12.Cl			ATCC114	0.1 µg/mL
CCCCc1cnc(C(=O)/C=C/c2ccccc2Br)cn1		absorbance	CCM	15.6 µg/mL
Cc1c(N2CC[C@H](NC(=O)[C@H](C)N)C2)c(F)cn2c(=O)c(C(=O)O)cc(C3CC3)c12.Cl			ATCC114	1.56 µg/mL
NNC(=O)c1ccncc1		absorbance		36.46 µM
O=c1c(-c2ccc(C(F)(F)F)cc2)c(/C=C/c2cn(-c3ccccc3)nc2-c2cccc(Br)c2)nc2sccn12		colony count	mc2155	57 µg/mL
C[C@H]1COc2c(N3CCC(O)C3)c(F)cn3c(=O)c(C(=O)O)cc1c23			ATCC114	25 µg/mL
Cc1ccccc1-c1nn(-c2ccccc2)cc1/C=C/c1nc2sccn2c(=O)c1-c1ccc(C#N)cc1		colony count	mc2155	17 µg/mL
Cc1nc(-c2ccc(Cl)cc2)sc1-c1csc(-c2ccc(F)cc2)n1		absorbance		40.73 µM
C[C@H]1NCc2cc(-c3ccc4c(=O)c(C(=O)O)cn(C5CC5)c4c3OC(F)F)ccc21			A28314	0.13 µg/mL
CN(C)[C@@H]1C(=O)C(C(N)=O)=C(O)[C@@]2(O)C(=O)C3=C(O)c4c(O)cccc4[C@@](C)(O)[C@H]3C[C@@H]12			MC^2 552 (ciprofloxacin-resistant)	2 µg/mL
Cc1c(N2CCC(C)(N)CC2)c(F)cn2c(=O)c(C(=O)O)cc(C3CC3)c12.Cl			ATCC114	0.05 µg/mL
CCCCCCCCCCCCCCCC[N+](C)(C)CC			mc2155	8 µg/mL
Cc1nc(-c2ccc(Cl)cc2)sc1-c1csc(-c2cccc(Cl)c2)n1		absorbance		>100 µM
CCCc1cnc(C(=O)/C=C/c2ccc(Br)cc2)cn1		absorbance	CCM	>250 µg/mL
CC(=O)O.Cc1c(N2CCCNCC2)c(F)cn2c(=O)c(C(=O)O)cc(C3CC3)c12			ATCC114	3.1 µg/mL
CNc1ccc2oc(C[C@@H]3OC4(CC[C@@H]3C)O[C@H](C(C)C(=O)c3ccc[nH]3)[C@H](C)C[C@H]4C)nc2c1C(=O)O	C20 insertion	resazurin	mc2155	2.5 µg/mL
Cc1nc(-c2ccccc2)sc1-c1csc(-c2ccc(F)cc2)n1		absorbance		62.51 µM
CCN1CCN(c2c(F)cc3c(=O)c(C(=O)O)cn(-c4ccc(F)cc4F)c3c2OC)CC1			ATCC 19420	2 µg/mL
Cc1c(N2CC(CN(C)C)CC3CCCC32)c(F)cn2c(=O)c(C(=O)O)cc(C3CC3)c12.Cl			ATCC114	3.1 µg/mL
Cc1nc(-c2ccccc2)sc1-c1csc(Cc2ccc(F)cc2)n1		absorbance		>100 µM
CNCC1CCN(c2c(F)cc3c(=O)c(C(=O)O)cn(C4CC4)c3c2Cl)C1			ATCC 19420	0.06 µg/mL
N#Cc1ccc(-c2c(/C=C/c3cn(-c4ccccc4)nc3-c3ccccc3Br)nc3sccn3c2=O)cc1		colony count	mc2155	55 µg/mL
Cc1ccc(-c2nc(C)c(-c3csc(Cc4ccccc4)n3)s2)cc1		absorbance		>100 µM
Cc1c(N2CCC(N(C)C)CC2)c(F)cn2c(=O)c(C(=O)O)cc(C3CC3)c12			ATCC114	0.2 µg/mL
COc1ccccc1-c1nn(-c2ccccc2)cc1/C=C/c1nc2sccn2c(=O)c1-c1ccc(C(F)(F)F)cc1		colony count	mc2155	71 µg/mL

5 of the rows above, restated:

structure	changes	read by	strain	result
N#Cc1ccc(-c2c(/C=C/c3cn(-c4ccccc4)nc3-c3ccccc3Br)nc3sccn3c2=O)cc1		colony count	mc2155	55 µg/mL
C[C@H]1NCc2cc(-c3ccc4c(=O)c(C(=O)O)cn(C5CC5)c4c3OC(F)F)ccc21			A28314	0.13 µg/mL
CC(=O)O.Cc1c(N2CCCNCC2)c(F)cn2c(=O)c(C(=O)O)cc(C3CC3)c12			ATCC114	3.1 µg/mL
Cc1c(N2CCCC(n3cccc3)C2)c(F)cn2c(=O)c(C(=O)O)cc(C3CC3)c12			ATCC114	6.2 µg/mL
Cc1c(N2CCC(N(C)C)CC2)c(F)cn2c(=O)c(C(=O)O)cc(C3CC3)c12			ATCC114	0.2 µg/mL

An empty or dashed field is not shown. Conditions beyond the fields shown may differ between rows.